Anti-infective test results gathered from many reports (values: NIAID ChemDB through PubChem).

All rows: whole-cell or culture tests; agent: Cryptococcus neoformans; measure: MIC

Rows are shuffled and stem from different studies. Blank or dashed fields: not listed here.

SMILES | strain or isolate | value
CCCCCOc1ccc(-c2cc(-c3ccc(C(=O)N[C@H]4C[C@@H](O)[C@@H](O)NC(=O)[C@@H]5[C@@H](O)[C@@H](C)CN5C(=O)[C@H]([C@H](O)CC(N)=O)NC(=O)[C@H]([C@H](O)[C@@H](O)c5ccc(O)c(OS(=O)(=O)O)c5)NC(=O)[C@@H]5C[C@@H](O)CN5C(=O)[C@H]([C@@H](C)O)NC4=O)cc3)no2)cc1 | FMR 8398 | 64 µg/mL
Cn1ccc2c3oc(-c4ccccc4)c(O)c(=O)c3ccc21 | - | >50 µg/mL
C[C@@H](SC1COC(/C=C/C=C/c2ccc(C#N)cc2F)OC1)[C@](O)(Cn1cncn1)c1ccc(F)cc1F | TIMM0362 | ≤0.008 µg/mL
CC(C)=CCC/C(C)=C/CN=C(N)NC/C=C(\C)CCC=C(C)C | ATCC 90012 | 250 µg/mL
OCC1c2ccccc2SC1c1ccc2c(c1)OCO2 | Isolate 25 | 12.5 µg/mL
CC(=O)NC1=NN(C(C)=O)C2(CC(c3ccc(C)cc3)N(C(C)=O)C(c3ccc(C)cc3)C2)S1 | - | >100 µg/mL
C/C(=C\C(=O)CCCCCCCCC(=O)O)C[C@@H]1OC[C@H](C[C@H]2O[C@H]2[C@@H](C)[C@H](C)O)[C@@H](O)[C@H]1O | - | >128 µg/mL
Cc1ccc(-c2cc(-c3ccc(Cl)cc3)nc(/N=C3\C(=O)N(CN4CCOCC4)c4ccc(Br)cc43)n2)cc1 | - | 39.06 µg/mL
Cc1nc(N)nc(N)c1C#CC1CCCC1 | - | 0.1 µg/mL
O=C1/C(=C/c2ccc3c(c2)OCO3)COc2ccc(-c3ccccc3)cc21 | 25 | 100 µg/mL
CCC(C)n1ncn(-c2ccc(N3CCN(c4ccc(OC[C@H]5CO[C@](Cn6cncn6)(c6ccc(Cl)cc6Cl)O5)cc4)CC3)cc2)c1=O | A25838 | 0.06 µg/mL
Cc1cc2c3c(N)nc(N)nc3ccc2n1C | - | 6.2 µg/mL
COc1ccc(/C=C/C(=O)c2ccc3c(ccn3C)c2O)cc1 | - | 25 µg/mL
O=C1/C(=C/c2ccc(-c3ccccc3)cc2)CSc2ccccc21 | Farwania | 25 µg/mL
COc1cccc(-c2sc3ccccc3c2CO)c1O | 93/V | >100 µg/mL
COc1ccc(/C=C2\COc3ccc(SC)cc3C2=O)cc1 | 93/V | 50 µg/mL
Cc1ccc(-c2cc(-c3ccc(Cl)cc3)nc(/N=C3\C(=O)N(CN4CCOCC4)c4ccccc43)n2)cc1 | - | 39.06 µg/mL
COc1ccc2c(c1)C(=O)/C(=C/c1ccc(OC)c(OC)c1)CO2 | Farwania | 1.5 µg/mL
OCc1c(-c2ccc3c(c2)OCO3)sc2ccccc12 | 93/V | 25 µg/mL
CCCCCCCCCC[C@@H]1NC(=O)[C@H](CC(C)(C)C)NC(=O)[C@H](CCCCN)NC(=O)CNC(=O)[C@H]1O | - | 8 µg/mL
CC(=O)NC1=NN(C(C)=O)C2(CC(c3ccccc3)N(C(C)=O)C(c3ccccc3)C2)S1 | - | >100 µg/mL
COc1ccccc1/C=C1\CSc2ccccc2C1=O | 93/V | 25 µg/mL
CCCCCCCCCC[C@H]1NC(=O)[C@H](CC(C)(C)C)NC(=O)[C@H](CCCCN)NC(=O)CNC(=O)[C@H]1O | - | 4 µg/mL
Cc1nc(N)nc(N)c1C#Cc1ccccc1 | - | 0.4 µg/mL
CC(C)=CCC/C(C)=C/CN(C/C=C(\C)CCC=C(C)C)C(=N)N | ATCC 90012 | 250 µg/mL
COc1ccc(O)c(C2Sc3ccccc3C2CO)c1 | Farwania | 12.5 µg/mL
Cc1ccc(-c2cc(-c3ccc(Cl)cc3)nc(/N=C3\C(=O)N(CN4CCCCC4)c4ccc(Cl)cc43)n2)cc1 | - | 39.06 µg/mL
COc1ccc(/C=C/C(=O)c2ccc3sccc3c2O)cc1 | - | >50 µg/mL
Cc1ccc(-c2cc(-c3ccc(Cl)cc3)nc(/N=C3\C(=O)Nc4ccccc43)n2)cc1 | - | 39.06 µg/mL
CC(=O)C1CCc2sccc2C1=O | - | 25 µg/mL
CCCCCOc1ccc(-c2ccc(-c3ccc(C(=O)N[C@H]4C[C@@H](O)[C@@H](O)NC(=O)[C@@H]5[C@@H](O)[C@@H](C)CN5C(=O)[C@H]([C@H](C)O)NC(=O)[C@H]([C@H](O)[C@@H](O)c5ccc(O)cc5)NC(=O)[C@@H]5C[C@@H](O)CN5C(=O)[C@H]([C@H](C)O)NC4=O)cc3)cc2)cc1 | 887.002 | >2 µg/mL
COc1ccc(/C=C2\COc3ccccc3C2=O)cc1 | 93/V | 50 µg/mL
CCCCCCCCCCSCC(OC)C(=O)O | ATCC66031 | 0.00124 µM
COc1ccc(/C=C2\CSc3ccc(Cl)cc3C2=O)cc1 | 25 | 6 µg/mL
COc1ccc(-c2oc3c(ccc4sccc43)c(=O)c2O)cc1 | - | 50 µg/mL
CCCCCCCCC[C@@H]1NC(=O)[C@H](CC(C)(C)C)NC(=O)[C@H](CCCN)NC(=O)CNC(=O)C1(F)F | - | 4 µg/mL
C[C@H]1[C@H](O)[C@@H](C)/C=C/C=C/C=C/C=C/C=C/C=C/C=C/[C@H](O[C@@H]2O[C@H](C)[C@@H](O)[C@H](N)[C@@H]2O)C[C@@H]2O[C@](O)(C[C@@H](O)C[C@@H](O)CC[C@H](O)[C@@H](O)C[C@@H](O)CC(=O)O[C@H]1C)C[C@H](O)[C@H]2C(=O)O | - | 20 µg/mL
COc1ccc(/C=C2\CCc3ccccc3C2=O)cc1 | 93/V | 100 µg/mL
CCCCCCCCCC[C@@H]1CC(=O)NCC(=O)N[C@@H](CCCCN)C(=O)N[C@@H](CC(C)(C)C)C(=O)N1 | - | 4 µg/mL

The last 4 rows once more:

SMILES	strain or isolate	value
CCCCCCCCC[C@@H]1NC(=O)[C@H](CC(C)(C)C)NC(=O)[C@H](CCCN)NC(=O)CNC(=O)C1(F)F	-	4 µg/mL
C[C@H]1[C@H](O)[C@@H](C)/C=C/C=C/C=C/C=C/C=C/C=C/C=C/[C@H](O[C@@H]2O[C@H](C)[C@@H](O)[C@H](N)[C@@H]2O)C[C@@H]2O[C@](O)(C[C@@H](O)C[C@@H](O)CC[C@H](O)[C@@H](O)C[C@@H](O)CC(=O)O[C@H]1C)C[C@H](O)[C@H]2C(=O)O	-	20 µg/mL
COc1ccc(/C=C2\CCc3ccccc3C2=O)cc1	93/V	100 µg/mL
CCCCCCCCCC[C@@H]1CC(=O)NCC(=O)N[C@@H](CCCCN)C(=O)N[C@@H](CC(C)(C)C)C(=O)N1	-	4 µg/mL